Source: publication PMC12261321, “Inhibitors of the Bacterioferritin Ferredoxin Complex Dysregulate Iron Homeostasis and Kill and Biofilm-Embedded Cells” (ACS Infectious Diseases, 2025)
≈ marks a conversion by molar mass, not a printed value.

Sequences of proteins named here, by UniProt entry; tags and fusion partners are left off.
UniProt Q9HY79, whole entry: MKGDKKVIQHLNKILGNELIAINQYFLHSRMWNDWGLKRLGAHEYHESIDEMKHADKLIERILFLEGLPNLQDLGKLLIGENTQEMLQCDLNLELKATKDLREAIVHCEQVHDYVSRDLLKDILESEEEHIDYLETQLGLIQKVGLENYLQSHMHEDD

Key:
[1] = system: P. aeruginosa PAO1; test: Half maximal inhibitory concentration (IC50), planktonic growth (CFU/mL); assay type: cell-based; conditions: for IC50: read-out: IC50, P. aeruginosa PAO1, planktonic cells, M63 media, 18 h
[2] = target: recombinant Pa BfrB (Pseudomonas aeruginosa, UniProt Q9HY79); test: Dissociation constant (Kd), fluorescence quenching titration of apo Pa BfrB; assay type: binding, P. aeruginosa
[3] = system: P. aeruginosa PAO1 biofilm; test: Pellicle biofilm assay, % survival of biofilm cells; assay type: cell-based; conditions: 24 h
[4] = system: A. baumannii 5075; test: MIC, broth microdilution in M63 media; assay type: cell-based; conditions: 20 h
[5] = system: A. baumannii ATCC 17978; test: MIC, broth microdilution in M63 media; assay type: cell-based; conditions: 20 h
[6] = system: A. baumannii ATCC 19606; test: MIC, broth microdilution in M63 media; assay type: cell-based; conditions: 20 h
[7] = system: P. aeruginosa PAO1; test: Compound intracellular accumulation in P. aeruginosa PAO1; assay type: cell-based
[8] = system: A. baumannii 5075; test: Siderophores secreted by A. baumannii (CAS assay); assay type: cell-based; conditions: 5075, 20 h, M63 without citrate; compounds 40 μM, SB-17–140 80 μM
[9] = system: A. baumannii 5075; test: Compound intracellular accumulation in A. baumannii 5075; assay type: cell-based
[10] = biofilm challenged with 50 µM compound
[11] = cells treated with 30 µM compound
[12] = biofilm challenged with 30 µM compound
[13] = ‡ treatment with 15 µM compound

SMILES	IC50 [1] [µM]	Kd [2] [µM]	% Survival Biofilm, P. aeruginosa PAO1 [3, 10]	MIC, A. baumannii 5075 [4] [µM]	MIC, A. baumannii 17978 [5] [µM]	MIC, A. baumannii 19606 [6] [µM]	Intracell. Accum, P. aeruginosa PAO1 [7, 11] [nmol/1012 CFU]	siderophore secretion, ΔA 630 nm normalized to OD600 [8]	% Survival Biofilm, P. aeruginosa PAO1 [3, 12] [%]	Intracell. Accum, A. baumannii 5075 [9, 11] [nmol/1012 CFU]	IC50, P. aeruginosa PAO1 ([1]; planktonic cells, M63 media, 18 h)	Intracell. Accum, A. baumannii 5075 [9, 13] [nmol/1012 CFU]	Intracell. Accum, P. aeruginosa PAO1 [7, 13] [nmol/1012 CFU]
O=C1NC(=O)c2c(NCc3ccc(Cl)cc3O)cccc21	33	24	12 ± 6%	50 (≈ 15.1 µg/mL)	50 (≈ 15.1 µg/mL)	50 (≈ 15.1 µg/mL)	78 ± 3	secrete significantly higher levels of siderophore					
O=C1NC(=O)c2c(NCc3c(O)ccc(Br)c3F)cccc21	13	6		30 (≈ 11 µg/mL)	30 (≈ 11 µg/mL)	30 (≈ 11 µg/mL)			54.5 ± 0.7				
O=C1NC(=O)c2c(NCc3cc(F)cc(F)c3O)cccc21	71	14	84 ± 11%	50 (≈ 15.2 µg/mL)	100 (≈ 30.4 µg/mL)	50 (≈ 15.2 µg/mL)	23 ± 8			117 ± 21			
O=C1NC(=O)c2c(NCc3cccc(O)c3O)cccc21		69	Not active	200 (≈ 56.9 µg/mL)	200 (≈ 56.9 µg/mL)	200 (≈ 56.9 µg/mL)				31 ± 11	Not active		
O=C1NC(=O)c2c(NCc3cc(Cl)cc(Cl)c3O)cccc21	26	8		40 (≈ 13.5 µg/mL)	40 (≈ 13.5 µg/mL)	40 (≈ 13.5 µg/mL)			41 ± 4			358 ± 92	110 ± 20
Cc1ccc(O)c(CNc2cccc3c2C(=O)NC3=O)c1	107		63 ± 3%	100 (≈ 28.2 µg/mL)	100 (≈ 28.2 µg/mL)	80 (≈ 22.6 µg/mL)	87 ± 15			148 ± 44			
O=C1NC(=O)c2c(NCc3ccc(F)cc3O)cccc21	101	24	61 ± 16%	150 (≈ 42.9 µg/mL)	150 (≈ 42.9 µg/mL)	75 (≈ 21.5 µg/mL)	25 ± 3			248 ± 86			
